Anti-infective test results gathered from many reports (values: NIAID ChemDB through PubChem).

All rows: growth or infection tests; species: Mycobacterium tuberculosis

Fold resistance has wild type as its base. Inhibition is in % at the dose shown (toxicity tests: loss of growth or viability). Blank or dashed fields: not listed here. Rows are shuffled and stem from different studies. MIC bound comes from a single tested concentration. A number after MIC or MFC names an inhibition level or a share of isolates. Two numbers with a dash give a range or band.

compound | method | mutations | strain or isolate | endpoint | tested at | result
Nc1ccccc1NC(=S)C(=O)Nc1ccccc1 | - | - | H37Rv | MIC | - | 37 µM
CC(C)[C@H]1CO[C@]23CCN(Cc4ccc(N5CCC(OC(F)(F)F)CC5)cc4)C[C@H]2CCC(=O)N13 | resazurin | - | H37Rv | MIC98 | - | <1 µM
Cc1c(CN2CCSCC2)cc(-c2ccccc2F)n1-c1ccccc1 | - | - | 103471 | MIC | - | 4 µg/mL
O=C(OC(CS)CS)c1ccccc1 | - | - | H37Rv | MIC | - | 1.56 µg/mL
c1cc2c(s1)CCOC21CCN(Cc2ccc3c(c2)OCCO3)CC1 | fluorescence | MmpL3: Ala677Val | H37Rv | fold resistance | - | 1.6
COc1ccc(Cn2c(-c3ccc(OC)c(OC)c3)nc3ccccc32)cc1OC | radiometric | - | H37Rv | MIC | - | >500 µM
CCN(CC)CC(=O)Nc1ccc(C)c(Cl)c1 | BACTEC | - | H37Rv | inhibition | 12.5 µg/mL | -19%
CO[C@H]1/C=C/O[C@@]2(C)Oc3c(C)c(O)c4c(O)c(c5c(c4c3C2=O)NC2(CCN(CC(C)C)CC2)N=5)=NC(=O)/C(C)=C\C=C\[C@H](C)[C@H](O)[C@@H](C)[C@@H](O)[C@@H](C)[C@H](OC(C)=O)[C@@H]1C | - | - | 15 isolates (SER531LEU) | MIC | - | >5 µg/mL
CC(=O)N[C@H]1[C@@H](O[C@@H]2O[C@H](C[C@@H](O)[C@H]3O[C@@H](n4ccc(=O)[nH]c4=O)[C@H](O)[C@@H]3O)[C@H](O)[C@H](O)[C@H]2NC(=O)/C=C/CC(C)C)O[C@H](CO)[C@@H](O)[C@@H]1O | - | - | CS-R | MIC | - | 0.2 µg/mL
Cc1ccn2cc(-c3cc4cc(Cl)cc(Cl)c4oc3=O)nc2c1 | BACTEC | - | H37Rv | MIC | - | >6.25 µg/mL
O=C(C=Cc1cccc(Oc2ccccc2)c1)c1ccc(F)cc1 | resazurin | - | H37Rv | MIC | - | 2.93 µg/mL
O=c1cc(O)cnn1[C@@H]1O[C@H](CO)[C@@H](O)[C@H]1O | BACTEC | - | H37Rv | MIC bound | - | >12.5 µg/mL
Cc1c(CN2CCN(C)CC2)cc(-c2ccccc2F)n1-c1ccccc1 | - | - | 103471 | MIC | - | 16 µg/mL
CC(C)N(C(=S)S)C(C)C | BACTEC | - | H37Rv | MIC bound | - | >12.5 µg/mL
CCON=C1CN(c2nc(=O)c3cc(C(F)(F)F)cc([N+](=O)[O-])c3s2)C1 | resazurin | - | 16802 clinical isolate | MIC90 | - | 0.016 µg/mL
NC1=NC(c2cccc(Oc3ccccc3)c2)C=C(c2ccccc2)N1 | resazurin | - | H37Rv | inhibition | 6.25 µg/mL | 82%
O=c1oc2ccc(Br)cc2cc1-c1cn2ccccc2n1 | BACTEC | - | H37Rv | inhibition | 6.25 µg/mL | 5%
O=C(NNCc1ccccc1)c1ccncc1 | - | - | H37Rv (isoniazid-resistant) | MIC | - | >31.25 µg/mL
CCc1ccc(Oc2ccccc2)c(O)c1 | - | - | H37Rv | MIC99 | - | 17.5 µM
CC(C)[C@H]1CCO[C@]23CCN(Cc4ccccc4)C[C@H]2CCC(=O)N13 | resazurin | - | H37Rv | MIC98 | - | 1–10 µM
COc1cc(Br)cc2cc(-c3cn4ccccc4n3)c(=O)oc12 | BACTEC | - | H37Rv | MIC | - | >6.25 µg/mL
CCCC(=O)SCC1CS1 | - | - | H37Rv | MIC | - | 6.25–12.5 µg/mL
O=C(Nc1cccc(N2CCSCC2)c1)c1ccc(Cl)cc1 | - | - | 103471 | MIC | - | 8 µg/mL
CC(C)[C@H]1CO[C@]23CCN(C4CCC4)C[C@H]2CCC(=O)N13 | resazurin | - | H37Rv | MIC98 | - | >10 µM
COc1cccc(NC(=O)CC(=O)NN2C(=O)/C(=C\c3ccc(N(CCC#N)CCC#N)cc3)N=C2c2cc([N+](=O)[O-])ccc2Cl)c1 | BACTEC | - | H37Rv | MIC bound | - | >12.5 µg/mL
NNC(=O)c1ccncc1 | - | - | - | MIC | - | 0.4 µg/mL
C=C(Br)C(=O)N1CCCC1C(=O)NC | BACTEC | - | H37Rv | inhibition | 12.5 µg/mL | 6%
CC[C@@H](C)[C@H]1CO[C@]23CCN(Cc4ccccc4)C[C@H]2CCC(=O)N13 | resazurin | - | H37Rv | MIC98 | - | 1–10 µM
CCOC(=O)NC(=O)c1cn(CCN2CCN(C(=O)CCCCCCCCCCNc3ncnc4c3ncn4[C@@H]3O[C@H](CO)[C@@H](O)[C@H]3O)CC2)c(=O)[nH]c1=O | BACTEC | - | H37Rv | MIC bound | - | >12.5 µg/mL
Cc1c(CN2CCSCC2)cc(-c2ccccc2)n1-c1ccccc1 | - | - | - | MIC | - | 1 µg/mL
CCOc1ccc(-n2c(-c3ccc(OC)cc3)cs/c2=N\NC(=O)COc2cnccn2)cc1 | - | - | H37Rv | MIC | - | 8.7 µg/mL
SCCC1CS1 | - | - | H37Rv | MIC | - | 50 µg/mL
O=C(C[n+]1ccccc1)NNC(=O)/C(=C/c1ccc2c(c1)OCO2)NC(=O)c1ccccc1.[Cl-] | BACTEC | - | H37Rv | inhibition | 12.5 µg/mL | 16%
O=C(SCC1CS1)c1ccco1 | - | - | H37Rv | MIC | - | 0.39 µg/mL
CC[C@@H]1C[C@@H]2CN(Cc3ccc(C(F)(F)F)cc3)CC[C@@]23OC[C@H](C(C)C)N3C1=O | resazurin | - | H37Rv | MIC98 | - | <98 µM
O=C(Nc1ccccc1)C(=S)Nc1ccccc1O | - | - | H37Rv | MIC | - | 37 µM
FC(F)(F)c1cc(NC(=S)SCc2ccc3c(c2)OCO3)ccc1Cl | BACTEC | - | H37Rv | MIC bound | - | >12.5 µg/mL
Nc1ccc(NC(=S)C(=O)Nc2ccc3ccccc3c2)cc1 | - | - | H37Rv | MIC | - | 3000 µM
CN(CC1CCCCC1)C1CCN(c2nc(=O)c3cc(C(F)(F)F)cc([N+](=O)[O-])c3s2)CC1 | resazurin | - | H37Rv | MIC90 | - | 0.051 µg/mL
CC1COC2(CCN(c3nc(=O)c4cc(C(F)(F)F)cc([N+](=O)[O-])c4s3)CC2)O1 | - | - | H37Rv | MIC | - | 0.001 µg/mL
COc1cccc2cc(-c3cn4ccc(C)cc4n3)c(=O)oc12 | BACTEC | - | H37Rv | MIC | - | >6.25 µg/mL
FC(F)(F)c1ccc(-c2nc3ccccc3[nH]2)cc1 | radiometric | - | H37Rv | MIC | - | >500 µM
COc1cccc2cc(-c3cn4ccccc4n3)c(=O)oc12 | BACTEC | - | H37Rv | MIC | - | >6.25 µg/mL
Br.COc1ccc(OC)c2c1nc(CBr)n2C | BACTEC | - | H37Rv | MIC bound | - | >12.5 µg/mL
Nc1ccccc1NC(=S)C(=O)Nc1cccc2ccccc12 | - | - | H37Rv | MIC | - | 111 µM
CSC(=S)NN=C1CCCCC1 | - | - | ETA-R | MIC | - | 6.4 µg/mL
CC(=O)Oc1ccc(-c2nc3ccccc3[nH]2)cc1 | radiometric | - | H37Rv | MIC | - | >500 µM
CCCCCCc1ccc(Oc2ccccc2)c(O)c1 | - | - | NHN20 | MIC99 | - | 3.1 µg/mL
C(=C\c1nc2ccccc2[nH]1)/c1ccccc1 | radiometric | - | H37Rv | MIC | - | >500 µM
CC(=O)NC[C@H]1CN(c2ccc(N3CCN(c4ccc([N+](=O)[O-])s4)CC3)c(F)c2)C(=O)O1 | - | - | V-3093 | MIC | - | ≤0.125 µg/mL
Cc1c(CN2CCSCC2)cc(-c2ccccc2)n1-c1ccccc1Cl | - | - | 103471 | MIC | - | 16 µg/mL
O=C(Nc1ccc(N2CCSCC2)cc1)c1ccc(Cl)cc1 | - | - | 103471 | MIC | - | >16 µg/mL
CC(NNC(=O)c1ccncc1)c1ccc(F)cc1 | - | - | H37Rv | MIC | - | 1.6 µg/mL
CCOc1ccc(-n2c(-c3ccc(O)cc3)cs/c2=N\NC(=O)COc2cnccn2)cc1 | - | - | H37Rv | MIC | - | 15 µg/mL
CO[C@H]1/C=C/O[C@@]2(C)Oc3c(C)c(OC(C)=O)c4c(c3C2=O)C(=O)C=C(NC(=O)/C(C)=C\C=C\[C@H](C)[C@H](O)[C@@H](C)[C@@H](O)[C@@H](C)[C@H](OC(C)=O)[C@@H]1C)C4=O | - | - | PAS-R | MIC | - | 0.05 µg/mL
CO/N=C1\CCCN(c2nc(=O)c3cc(C(F)(F)F)cc([N+](=O)[O-])c3s2)CC1 | resazurin | - | 16892 clinical isolate | MIC90 | - | 0.031 µg/mL
C/C(=N\NC(=O)c1ccncc1)c1ccc(F)cc1 | - | - | H37Rv (rifampin-resistant) | MIC | - | 4 µg/mL
O=C(Nc1cccnc1)c1ccc([N+](=O)[O-])s1 | resazurin | - | H37Rv | MIC | - | 1.56 µg/mL
CN(CC1CCCCC1)C1CCN(c2nc(=O)c3cc(C(F)(F)F)cc([N+](=O)[O-])c3s2)C1 | resazurin | - | H37Rv | MIC90 | - | 0.088 µg/mL
O=C(C=Cc1cccc(Oc2ccccc2)c1)c1ccc(Cl)cc1Cl | resazurin | - | H37Rv | MIC | - | 2.16 µg/mL
CC(=O)Nc1ccc2c(c1)CN1C(=O)c3ccccc3C1=N2 | resazurin | - | H37Rv | inhibition | 6.25 µg/mL | 17%
CC(C)[C@H]1CO[C@]23CCN(Cc4ccccc4)C[C@H]2CC(=O)N13 | resazurin | - | H37Rv | MIC98 | - | <1 µM
Cc1c(CN2CCN(C)CC2)cc(-c2ccccc2)n1-c1ccccc1F | - | - | 103471 | MIC | - | >16 µg/mL
COc1ccc2c(c1)[n+]([O-])c(C(N)=O)c(N)[n+]2[O-] | - | - | CS-R | MIC | - | 6.3 µg/mL
Clc1ccc(CNc2ccc(-n3ccnc3)cc2)cc1 | - | - | 103471 | MIC | - | 4 µg/mL
O=c1nc(N2CC(=NOCc3ccccc3)C2)sc2c([N+](=O)[O-])cc(C(F)(F)F)cc12 | resazurin | - | 16802 clinical isolate | MIC90 | - | 0.016 µg/mL
O=C(SCC1CS1)C(c1ccccc1)c1ccccc1 | - | - | H37Rv | MIC | - | >50 µg/mL
CC(NNC(=O)c1ccncc1)c1cccc(C(F)(F)F)c1 | - | - | H37Rv (ethionamide-resistant) | MIC | - | >31.25 µg/mL
CC1(C)CC(=O)C2=C(C1)Nn1c(nnc1C(F)(F)F)S2 | resazurin | - | H37Rv | MIC bound | - | >6.25 µg/mL
O=c1oc2ccccc2cc1-c1cn2ccccc2n1 | BACTEC | - | H37Rv | inhibition | 6.25 µg/mL | 0%
O=C1OC(/C=C/c2ccccc2)=NC/1=C\c1ccccc1 | BACTEC | - | H37Rv | inhibition | 12.5 µg/mL | 22%
NC(=O)C(=S)Nc1ccccc1 | - | - | H37Rv | MIC | - | 37 µM
O=C(COc1cnccn1)N/N=C1\SCC(=O)N1c1ccc(Cl)cc1[N+](=O)[O-] | - | - | H37Rv | MIC | - | 85 µg/mL
COC(=O)c1ccc(OC)c2nc3c(C=O)c(OC)cc(OC)c3nc12 | BACTEC | - | H37Rv | MIC | - | ≥128 µg/mL
O=C(NNCc1ccccc1F)c1ccncc1 | - | - | Ethambutol-resistant | MIC | - | 0.39 µg/mL
NC1=NC(c2cccc(Oc3ccccc3)c2)C=C(c2ccc(Cl)cc2)N1 | resazurin | - | H37Rv | inhibition | 6.25 µg/mL | 87%
O=C(N/N=C/c1cccc(F)c1)c1ccncc1 | - | - | Kanamycin-resistant | MIC | - | ≤0.1 µg/mL
Cc1c(CN2CCN(C)CC2)cc(-c2ccccc2)n1-c1ccccc1Cl | - | - | 103471 | MIC | - | >16 µg/mL
CC(=O)c1ccc2c(c1)N(CCCN(C)C)c1ccccc1S2 | BACTEC | - | H37Rv | MIC bound | - | >12.5 µg/mL
O=C(SCC1CS1)c1ccccc1 | - | - | H37Rv | MIC | - | 1.56 µg/mL
CCO/C=C1\N=C(c2ccc(OC)c(OC)c2)OC1=O | BACTEC | - | H37Rv | inhibition | 12.5 µg/mL | 13%
CC(C)[C@H]1CCO[C@]23CCN(Cc4ccc(C(F)(F)F)cc4)C[C@H]2CCC(=O)N13 | resazurin | - | H37Rv | MIC98 | - | >10 µM
O=c1oc2ccccc2cc1-c1cn2cc(Br)ccc2n1 | BACTEC | - | H37Rv | inhibition | 6.25 µg/mL | 0%
O=C(COc1cnccn1)N/N=c1\scc(-c2ccccc2)n1-c1ccc(Cl)cc1 | - | - | H37Rv | MIC | - | 26 µg/mL
CC(C)[C@H]1CO[C@]23CCN(C(=O)CCc4ccc(C(F)(F)F)cc4)C[C@H]2CCC(=O)N13 | resazurin | - | H37Rv | MIC98 | - | 1–10 µM
COc1ccc2nc(-c3ccc([N+](=O)[O-])cc3)[nH]c2c1 | radiometric | - | H37Rv | MIC | - | >500 µM
Clc1ccc(CNc2ccccc2N2CCOCC2)cc1 | - | - | 103471 | MIC | - | 8 µg/mL

A second listing of 7 rows from above:

compound	method	mutations	strain or isolate	endpoint	tested at	result
CC(C)[C@H]1CO[C@]23CCN(Cc4ccc(N5CCC(OC(F)(F)F)CC5)cc4)C[C@H]2CCC(=O)N13	resazurin	-	H37Rv	MIC98	-	<1 µM
CC(=O)N[C@H]1[C@@H](O[C@@H]2O[C@H](C[C@@H](O)[C@H]3O[C@@H](n4ccc(=O)[nH]c4=O)[C@H](O)[C@@H]3O)[C@H](O)[C@H](O)[C@H]2NC(=O)/C=C/CC(C)C)O[C@H](CO)[C@@H](O)[C@@H]1O	-	-	CS-R	MIC	-	0.2 µg/mL
COc1ccc2nc(-c3ccc([N+](=O)[O-])cc3)[nH]c2c1	radiometric	-	H37Rv	MIC	-	>500 µM
O=C(C[n+]1ccccc1)NNC(=O)/C(=C/c1ccc2c(c1)OCO2)NC(=O)c1ccccc1.[Cl-]	BACTEC	-	H37Rv	inhibition	12.5 µg/mL	16%
FC(F)(F)c1cc(NC(=S)SCc2ccc3c(c2)OCO3)ccc1Cl	BACTEC	-	H37Rv	MIC bound	-	>12.5 µg/mL
O=C(C=Cc1cccc(Oc2ccccc2)c1)c1ccc(F)cc1	resazurin	-	H37Rv	MIC	-	2.93 µg/mL
NNC(=O)c1ccncc1	-	-	-	MIC	-	0.4 µg/mL